Experimental data taken from patent publication US9023857B2, “Substituted 6-(2-aminobenzylamino)purine derivatives, their use as medicaments and preparations containing these compounds” (Univerzita Palackeho V Olomouci, priority 2009, dated 2015).

Test system: HAd4
Assay: HAd4 yield reduction assay (multiple step growth curve) in A549 cells
Details: 10 μM 105, 100 μM Cidofovir or both

SMILES | reduction of total virus yield (24 hours post infection) [logs] | reduction of total virus yield (48 hours post infection) [logs] | reduction of total virus yield (96 hours post infection)
CCC(CO)Nc1nc(NCc2ccccc2N)c2ncn(C(C)C)c2n1 (stereo not drawn) [Compound 105, 2-({6-[(2-aminobenzyl)amino]-9-isopropyl-9H-purin-2-yl}amino)butan-1-ol] | 5 | 1 | no overall effect
Nc1ccn(C[C@@H](CO)OCP(=O)(O)O)c(=O)n1 [Cidofovir, (S)-1-[3-Hydroxy-2-(phosphonylmethoxy)propyl]-cytosine, reference compound] | 2 | 2 | 3 logs
